Compound potency records, mixed from different reports. Data source: NIAID ChemDB in PubChem.

Common to all: whole-cell or culture tests; organism: HIV-1; endpoint: EC50

An empty or dashed field is not shown.

{"SMILES": "CN(C)c1ccc(C[C@@H]2[C@H](O)[C@@H](O)[C@@H](Cc3ccc(N(C)C)cc3)N(Cc3cccc(C(=O)Nc4nc5ccccc5[nH]4)c3)C(=O)N2Cc2cccc(C(=O)Nc3nc4ccccc4[nH]3)c2)cc1", "mutations": "PR-I84V V82F", "cells": "MT-2", "strain": "RF", "conditions": "3 d", "value": "<0.022 µM"}
{"SMILES": "Cc1cn([C@H]2C[C@H](N=[N+]=[N-])[C@@H](CO)O2)c(=O)[nH]c1=O", "cells": "PBMC", "strain": "xxBRU", "value": "<0.01 µM"}
{"SMILES": "Nc1nc(=O)n([C@H]2CS[C@@H](CO)S2)cc1F", "cells": "MT-4", "value": "4.8 µg/mL"}
{"SMILES": "O=C(O)P(=O)(O)O", "cells": "MT-2", "strain": "HXB2", "value": "17.6 µM"}
{"SMILES": "Cc1cn([C@H]2C[C@H](N=[N+]=[N-])[C@@H](CO)O2)c(=O)[nH]c1=O", "mutations": "NNRTI-resistant (RT V106A)", "cells": "MT-4", "value": "0.002 µM"}
{"SMILES": "Cc1cn([C@H]2C=C[C@@H](CO)O2)c(=O)[nH]c1=O", "cells": "MT-4", "strain": "HXBT (P-0)", "value": "0.5 µM"}
{"SMILES": "CC(C)C[C@@H]1[C@H](O)[C@@H](O)[C@@H](CC(C)C)N(Cc2cccc(C(=O)Nc3nc4ccccc4[nH]3)c2)C(=O)N1Cc1cccc(C(=O)Nc2nc3ccccc3[nH]2)c1", "mutations": "PR-I84V", "cells": "MT-2", "strain": "RF", "conditions": "3 d", "value": "<0.02 µM"}
{"SMILES": "CC(C)CC(SCc1ccccc1)c1c(O)cc(-c2ccccc2)oc1=O", "cells": "H9", "strain": "IIIB", "value": "28 µM"}
{"SMILES": "C=C(C)[C@]12C[C@@H](COC(=O)c3ccccc3)[C@@]34O[C@]5(O[C@@H]1[C@@H]3[C@@H]1O[C@]1(CO)[C@@H](O)[C@@]1(O)[C@H]4[C@H]([C@H](C)[C@@H]1OC(=O)c1ccccc1)[C@H](C)CCCCCC[C@H]5O)O2", "cells": "PBMC", "strain": "BaL", "value": "0.000042 µM"}
{"SMILES": "Cc1cc(C#N)cc(C)c1Oc1nc(Nc2ccc(C#N)cc2)nc(N)c1Br", "mutations": "E138A", "cells": "TZM-bl", "strain": "LAI", "value": "0.0029 µM"}
{"SMILES": "Cc1cc(S(N)(=O)=O)ccc1NC(=O)COc1ccc(Cl)cc1C(=O)c1cc(C#N)cc(C(N)=O)c1", "mutations": "V106A", "cells": "HeLa", "value": ">2 µM"}
{"SMILES": "Nc1ncnc2c1ncn2[C@@H]1O[C@H](CO)C=C[C@H]1F", "value": ">100 µg/mL"}
{"SMILES": "Nc1nc(=O)n([C@@H]2CS[C@H](CO)O2)cc1F", "mutations": "RT-D67N K70R T215F K219Q", "cells": "HT4 + HT4 LacZ-1", "strain": "RTMC (RT D67N K70R T215F K219Q)", "value": "0.4 µM"}
{"SMILES": "CON(C)C(=O)c1cc(C#N)cc(C(=O)c2cc(Cl)ccc2OCC(=O)Nc2ccc(S(N)(=O)=O)cc2C)c1", "mutations": "Y181C", "cells": "HeLa", "value": "0.117 µM"}
{"SMILES": "CC1(C)CC[C@]2(C(=O)O)CC[C@]3(C(=O)/C=C/c4ccc(O)c(O)c4)C(=CCC4[C@@]5(C)CC[C@H](O)C(C)(C)C5CC[C@]43C)[C@@H]2C1", "cells": "H9", "value": "1.53 µg/mL"}
{"SMILES": "O=C(Nc1nc2ccccc2[nH]1)c1cccc(CN2C(=O)N(Cc3cccc(C(=O)Nc4nc5ccccc5[nH]4)c3)[C@H](C3CCCCC3)[C@H](O)[C@@H](O)[C@H]2C2CCCCC2)c1", "cells": "MT-2", "strain": "RF", "conditions": "3 d", "value": "<0.014 µM"}
{"SMILES": "Nc1ccn([C@@H]2S[C@H](CO)C=C2F)c(=O)n1", "mutations": "RT-M184V", "cells": "PBMC", "strain": "3TC-resistant (RT M184V)", "value": "<125 µM"}
{"SMILES": "Nc1nc(N)c2ncn([C@H]3CO[C@@H](CO)O3)c2n1", "cells": "MT-2", "value": "2.1 µM"}
{"SMILES": "COC(=O)N[C@H](C(=O)N[C@@H](Cc1ccccc1)[C@@H](O)CN(Cc1ccc(-c2ccccn2)cc1)NC(=O)[C@@H](NC(=O)OC)C(C)(C)C)C(C)(C)C", "cells": "MT-2", "strain": "NL4-3", "value": "0.00075 µM"}
{"SMILES": "O=C1Cc2cc(CN3C(=O)N(Cc4ccc5c(c4)CC(=O)N5)[C@H](Cc4ccccc4)[C@H](O)[C@@H](O)[C@H]3Cc3ccccc3)ccc2N1", "cells": "MT-2", "strain": "RF", "value": "<0.37 µM"}
{"SMILES": "CC(C)(C)NC(=O)[C@@H]1CN(Cc2cc3cnccc3o2)CCN1C[C@@H](O)C[C@@H](Cc1ccccc1)C(=O)N[C@H]1c2ccccc2C[C@H]1O", "cells": "MT-4", "strain": "NL4-3", "value": "<0.015 µM"}
{"SMILES": "Cc1cc(S(N)(=O)=O)ccc1NC(=O)COc1ccc(Cl)cc1C(=O)c1cc(C#N)cc(N(C)C)c1", "mutations": "V106A", "cells": "HeLa", "value": "0.042 µM"}
{"SMILES": "[N-]=[N+]=NC[C@]1(CO)C[C@@H](n2ccc(=O)[nH]c2=O)CO1", "cells": "MT-4", "strain": "IIIB", "value": ">100 µM"}
{"SMILES": "Nc1nc(=O)n([C@@H]2CC[C@H](CO)O2)cc1F", "cells": "HT4 + HT4 LacZ-1", "strain": "HXB2", "value": "0.4 µM"}
{"SMILES": "CC(C)CC(SC1CCCC1)c1c(O)cc(-c2ccccc2)oc1=O", "cells": "H9", "strain": "IIIB", "value": "21 µM"}
{"SMILES": "Cc1ccnc2c1NC(=O)c1cccnc1N2C1CC1", "mutations": "RT-K70R K101E", "cells": "MT-4", "value": "<3 µM"}
{"SMILES": "CC(C)C[C@@H]1[C@H](O)[C@@H](O)[C@@H](Cc2ccccc2)N(Cc2cccc(C(=O)Nc3nc4ccccc4[nH]3)c2)C(=O)N1Cc1cccc(C(=O)Nc2nc3ccccc3[nH]2)c1", "mutations": "PR-I84V", "cells": "MT-2", "strain": "RF", "conditions": "3 d", "value": "<0.009 µM"}
{"SMILES": "Nc1nc2c(ncn2[C@H]2CO[C@@H](CO)O2)c(=O)[nH]1", "cells": "MT-2", "value": "0.105 µM"}
{"SMILES": "Cc1cc(S(N)(=O)=O)ccc1NC(=O)COc1ccc(Cl)cc1C(=O)c1cc(C#N)cc(C(=O)N2CCC2)c1", "mutations": "Y181C", "cells": "HeLa", "value": "0.45 µM"}
{"SMILES": "CCCCCC[C@@H]1[C@H](O)[C@@H](O)[C@@H](Cc2ccccc2)N(Cc2cccc(C(=O)Nc3nc4ccccc4[nH]3)c2)C(=O)N1Cc1cccc(C(=O)Nc2nc3ccccc3[nH]2)c1", "cells": "MT-2", "strain": "RF", "conditions": "3 d", "value": "<0.009 µM"}
{"SMILES": "Cc1c(O)cccc1C(=O)N[C@@H](CSc1ccccc1)[C@H](O)CN1C[C@H]2CCCC[C@H]2C[C@H]1C(=O)NC(C)(C)C", "strain": "pNL4-3 luciferase reporter", "value": "0.0081 µM"}
{"SMILES": "O=c1oc(-c2ccccc2)cc(O)c1C(SC1CCCC1)C1CCCC1", "cells": "H9", "strain": "IIIB", "value": "14 µM"}
{"SMILES": "O=C1N(Cc2ccc3[nH]c(=O)sc3c2)[C@H](Cc2ccccc2)[C@H](O)[C@@H](O)[C@@H](Cc2ccccc2)N1Cc1ccc2[nH]c(=O)sc2c1", "cells": "MT-2", "strain": "RF", "value": "<0.109 µM"}
{"SMILES": "C/C(=N\\NC(=S)NNC(=S)c1ccc(Cl)cc1)C12CC3CC(CC(C3)C1)C2", "cells": "MT-4", "strain": "IIIB", "value": ">10 µM"}
{"SMILES": "Nc1nc2c(ncn2[C@H]2CO[C@@H](CO)O2)c(=O)[nH]1", "cells": "CBMC", "strain": "IIIB", "value": "0.032 µM"}
{"SMILES": "COc1cc(C#N)cc(C(=O)c2cc(Cl)ccc2OCC(=O)Nc2ccc(S(N)(=O)=O)cc2C)c1", "mutations": "V106A", "cells": "HeLa", "value": "0.0022 µM"}
{"SMILES": "Cc1cc(/C=C/C#N)cc(C)c1Nc1ccnc(Nc2ccc(C#N)cc2)n1", "mutations": "E138G", "cells": "TZM-bl", "strain": "LAI", "value": "0.0007 µM"}
{"SMILES": "Cc1cc(S(N)(=O)=O)ccc1NC(=O)COc1ccc(Cl)cc1C(=O)c1cc(C#N)cc(OCF)c1", "mutations": "Y181C", "cells": "HeLa", "value": "0.0015 µM"}
{"SMILES": "O=C1N(Cc2ccc3cn[nH]c3c2)[C@H](Cc2ccccc2)[C@H](O)[C@@H](O)[C@@H](Cc2ccccc2)N1Cc1ccc2cn[nH]c2c1", "cells": "MT-2", "strain": "RF", "value": "<0.049 µM"}
{"SMILES": "Nc1ncnc2c1ncn2[C@H]1C=C[C@@](CO)(CCP(=O)(O)O)C1", "cells": "CEM", "value": "8.61 µM"}
{"SMILES": "Nc1nc(=O)n([C@@H]2CS[C@@H](CO)S2)cc1F", "cells": "MT-4", "value": ">100 µg/mL"}
{"SMILES": "Cc1cc(S(N)(=O)=O)ccc1NC(=O)COc1ccc(Cl)cc1C(=O)c1cc(N)cc(C#N)c1", "mutations": "Y181C", "cells": "HeLa", "value": "0.0068 µM"}
{"SMILES": "O=C1N(Cc2ccc3oc(=O)[nH]c3c2)[C@H](Cc2ccccc2)[C@H](O)[C@@H](O)[C@@H](Cc2ccccc2)N1Cc1ccc2oc(=O)[nH]c2c1", "cells": "MT-2", "strain": "RF", "value": "<0.579 µM"}
{"SMILES": "Nc1ccn([C@H]2CS[C@@H](CO)S2)c(=O)n1", "cells": "MT-4", "value": "9.3 µg/mL"}
{"SMILES": "Cc1cc(S(N)(=O)=O)ccc1NC(=O)COc1ccc(Cl)cc1C(=O)c1cc(C#N)cc(OC(F)F)c1", "mutations": "V106A", "cells": "HeLa", "value": "0.0059 µM"}
{"SMILES": "CC(C)(C)NC(=O)[C@@H]1CN(C(C)(C)c2cc3cnccc3o2)CCN1C[C@@H](O)C[C@@H](Cc1ccccc1)C(=O)N[C@H]1c2ccccc2OC[C@H]1O", "mutations": "PR-M46I L63P V82T I84V", "strain": "4X (PR M46I L63P V82T I84V) Recombinant", "value": "<0.031 µM"}

The last 6 rows once more:

SMILES,mutations,cells,strain,conditions,value
Nc1nc(=O)n([C@@H]2CS[C@@H](CO)S2)cc1F,,MT-4,,,>100 µg/mL
Cc1cc(S(N)(=O)=O)ccc1NC(=O)COc1ccc(Cl)cc1C(=O)c1cc(N)cc(C#N)c1,Y181C,HeLa,,,0.0068 µM
O=C1N(Cc2ccc3oc(=O)[nH]c3c2)[C@H](Cc2ccccc2)[C@H](O)[C@@H](O)[C@@H](Cc2ccccc2)N1Cc1ccc2oc(=O)[nH]c2c1,,MT-2,RF,,<0.579 µM
Nc1ccn([C@H]2CS[C@@H](CO)S2)c(=O)n1,,MT-4,,,9.3 µg/mL
Cc1cc(S(N)(=O)=O)ccc1NC(=O)COc1ccc(Cl)cc1C(=O)c1cc(C#N)cc(OC(F)F)c1,V106A,HeLa,,,0.0059 µM
CC(C)(C)NC(=O)[C@@H]1CN(C(C)(C)c2cc3cnccc3o2)CCN1C[C@@H](O)C[C@@H](Cc1ccccc1)C(=O)N[C@H]1c2ccccc2OC[C@H]1O,PR-M46I L63P V82T I84V,,4X (PR M46I L63P V82T I84V) Recombinant,,<0.031 µM

Conditions beyond the fields shown may differ between rows. ECn: concentration that inhibits the pathogen or its effect by n%.